A mixed list of measured activities; the numbers were collected in NIAID ChemDB.

Shared fields: tests in culture; agent: Hepatitis B virus; endpoint: EC50

Blank or dashed fields: not listed here. Conditions beyond the fields shown may differ between rows. ECn is the concentration giving n% inhibition of infection, replication or growth. a–b is a range or a potency band.

smiles,strain or isolate,cell line,method,result
Cc1nnc(-c2ccc(-n3c(=O)c4c(n5ncc(Cc6ccccc6)c35)CN(C(=O)c3ccc(Br)c(C(F)(F)F)c3)CC4)cc2)n1C,-,HepG2.117,luminescence,≤0.05 µM
C[C@H](NC(=O)c1c2n(c(=O)n1-c1ccc(OCC(F)(F)F)cc1)CCN(C(=O)c1ccc(Br)c(Cl)c1)C2)c1ccc(OCC(N)=O)cc1-n1cccn1,-,HepG2.117,PCR,>0.5 µM
O=c1[nH]c(=O)n([C@H]2CC[C@@H](CO)O2)cc1[N+](=O)[O-],-,HepG2,-,>10 µM
O=C1NC(=O)/C(=C/c2ccc(-c3ccc(Oc4ccccc4)cc3)cc2)S1,Genotype D,HepG2-NTCP,PCR,>10 µM
CC(C)Cc1cnn2c3c(c(=O)n(-c4ccc5c(c4)ncn5C)c12)C[C@@H](C)N(C(=O)c1ccc(Br)c(C(F)(F)F)c1)C3,-,HepG2.117,luminescence,≤0.05 µM
CC(C)Oc1ccc(-n2c(C(=O)NCc3ccccc3)c3n(c2=O)CCN([C@H](c2ccc(Br)c(Cl)c2)C(F)(F)F)C3)cc1,-,HepG2.117,PCR,>5 µM
Nc1cn([C@H]2CC[C@@H](CO)O2)c(=O)nc1N,-,HepG2,-,>10 µM
CC(C)Cc1cnn2c3c(c(=O)n(-c4ccc(-c5nncn5C)cc4)c12)C[C@H](C)N(C(=O)c1ccc(Cl)c(C(F)(F)F)c1)C3,-,HepG2.117,luminescence,0.05–0.5 µM
CS(=O)(=O)c1cc(C(=O)NCC2CCN(c3nc4cc(Cl)ccc4o3)CC2)ccn1,-,Primary human hepatocytes (PHH),antigen / luminescence,6.282 µM
C[C@@H](NC(=O)C1C2CN(C(=O)c3ccc(Br)c(Cl)c3)CCN2C(=O)N1c1ccc(OC2COC2)cc1)c1ccccc1,-,HepG2.117,PCR,0.1–0.5 µM
Nc1cn([C@@H]2C[C@H](O)[C@@H](CO)O2)c(=O)nc1N,-,HepG2,-,>10 µM
C#C[C@@H](CO)NC(=O)C(=O)c1c(C)c(C(=O)Nc2ccc(F)c(C#N)c2)n(C)c1C,-,HepG2.2.15,PCR,0.001–0.0099 µM
O=C(NC1CCC2(CC1)CCN(c1nc3cc(Cl)ccc3o1)CC2)c1ccnc(S(=O)(=O)C2CC2)c1,-,Primary human hepatocytes (PHH),antigen / luminescence,5.583 µM
C[C@H](NC(=O)c1c2n(c(=O)n1-c1ccc(OC3CC3)cc1)C[C@H](C)N(C(=O)c1ccc(Br)c(Cl)c1)C2)c1ccccc1F,-,HepG2.117,PCR,0.1–0.5 µM
Cc1cc(NC(=O)c2c3c(cn2C)S(=O)(=O)N[C@H]2CN(C(=O)C(=O)N[C@H](C)C(F)(F)F)C[C@H]2CO3)ccc1F,Genotype E,HepG2,PCR,0.00179 µM
Nc1ccn([C@@H]2CS[C@@H](CO)O2)c(=O)n1,-,CEM,-,>5 µM
C#CCNC(=O)C(=O)c1cn(C)c(C(=O)Nc2ccc(F)c(C#N)c2)c1Cl,-,HepG2.2.15,PCR,0.01–0.099 µM
O=C(Nc1ccc2nn(-c3ccc(Cl)cc3)nc2c1)C1CCOC1,-,Primary human hepatocytes (PHH),antigen / luminescence,4 µM
COc1ccc(Sc2nc(N)nc3c2ncn3CCOCP(=O)(OCC(F)(F)F)OCC(F)(F)F)cc1,-,HB611,-,0.03 µM
Cc1nc(-c2ccc(-n3c(=O)c4c(n5ncc(Cc6ccccc6)c35)CN(C(=O)c3ccc(Br)c(Cl)c3)CC4)cc2)n[nH]1,-,HepG2.117,luminescence,≤0.05 µM
Cn1ccc2cc(-n3c(C(=O)NCc4ccccc4)c4n(c3=O)CCN(C(=O)c3ccc(Br)c(Cl)c3)C4)ccc21,-,HepG2.117,PCR,0.1–0.5 µM
COc1ccccc1-c1ccc(-c2ccc(/C=C3\SC(=O)NC3=O)cc2)cc1,Genotype D,HepG2-NTCP,PCR,3.5 µM
Nc1nc(=O)n([C@H]2C[C@H](O)[C@@H](CO)O2)cc1[N+](=O)[O-],-,HepG2,-,>10 µM
Cc1nnnn1-c1ccc(-n2c(=O)c3c(n4ncc(Cc5ccccc5)c24)CN(C(=O)c2ccc(Br)c(C(F)(F)F)c2)[C@H](C)C3)cc1,-,HepG2.117,luminescence,≤0.05 µM
O=C1NC(=O)/C(=C/c2ccc(-c3ccc(C(=O)Nc4ccccc4)cc3)cc2)S1,Genotype D,HepG2-NTCP,PCR,>10 µM
Cc1c(C(=O)C(=O)NC(C)(C)c2ccnn2C)c(C)n(C)c1C(=O)Nc1ccc(F)c(C(F)(F)F)c1,-,HepG2.2.15,PCR,0.001–0.0099 µM
CNC(=O)c1ccc(-n2c(=O)c3c(n4ncc(Cc5ccsc5)c24)CN(C(=O)c2ccc(Br)c(Cl)c2)CC3)cc1,-,HepG2.117,luminescence,≤0.05 µM
O=C1NC(=O)/C(=C/c2ccc(-c3ccc(-c4ccccc4)cc3)cc2)S1,Genotype D,HepG2-NTCP,PCR,>10 µM
C[C@H]1Cc2c(n3ncc(Cc4ccccc4)c3n(-c3ccc(-c4n[nH]c(=O)n4C)cc3)c2=O)CN1C(=O)c1ccc(Br)c(C(F)(F)F)c1,-,HepG2.117,luminescence,≤0.05 µM
Cc1c(Br)c(=O)[nH]c(=O)n1COC(CO)CO,Mutant L180M/M204V,D88,-,30 µg/mL
O=C(NCc1ccccc1)c1c2n(c(=O)n1-c1cccnc1)CCN(C(=O)c1ccc(Cl)c(Cl)c1)C2,-,HepG2.117,PCR,>5 µM
Cc1cc(NC(=O)c2c3c(cn2C)S(=O)(=O)NC2CCN(C(=O)C(=O)NCC(F)(F)F)CC2CO3)ccc1F,-,HepAD38,PCR,<0.5 µM

Again, the opening 4 rows:

smiles	strain or isolate	cell line	method	result
Cc1nnc(-c2ccc(-n3c(=O)c4c(n5ncc(Cc6ccccc6)c35)CN(C(=O)c3ccc(Br)c(C(F)(F)F)c3)CC4)cc2)n1C	-	HepG2.117	luminescence	≤0.05 µM
C[C@H](NC(=O)c1c2n(c(=O)n1-c1ccc(OCC(F)(F)F)cc1)CCN(C(=O)c1ccc(Br)c(Cl)c1)C2)c1ccc(OCC(N)=O)cc1-n1cccn1	-	HepG2.117	PCR	>0.5 µM
O=c1[nH]c(=O)n([C@H]2CC[C@@H](CO)O2)cc1[N+](=O)[O-]	-	HepG2	-	>10 µM
O=C1NC(=O)/C(=C/c2ccc(-c3ccc(Oc4ccccc4)cc3)cc2)S1	Genotype D	HepG2-NTCP	PCR	>10 µM